Data as given in patent US20190184007A1, “AVOIDING NARCOLEPSY RISK IN INFLUENZA VACCINES” (priority 2013, published 2019).

Key:
[1] = molecular target: HLA DQA1*0102:DQB1*0602, P01920; assay: REVEAL class II binding assay (cell-free)
[2] = molecular target: HLA DQA1*0101:DQB1*0501; assay: REVEAL class II binding assay (cell-free)

With LILYDKEERRRRWRQ (modifications not checked) [Peptide #9 (Mutant of #3)] the REVEAL 24 hours (% of positive control signal) [1] was 17.3, the Stability index [1] was 14.7 and the REVEAL 24 hours (% of positive control signal) [2] was 6.4. It also gave a Stability index [2] of 2.9.
